Source: patent publication US6562969B1, “Ricin inhibitors and methods for use thereof” (dated 2003)

Tests used:
RTA [1] = target: T1, RTA (Ricinus communis, UniProt P02879); experiment: Crystallographic binding to RTA crystals (soaking / cocrystallization); settings: for binding to RTA crystals: soaking or cocrystallization
ricin A chain (RTA) = ricin A chain (RTA) (Ricinus communis, UniProt P02879); experiment: Inhibition of RTA in the Artemia salinas ribosome in vitro protein synthesis assay; settings: within the limits of solubility, pH 9
RTA [2] = target: T1, RTA; experiment: Interaction energy between RTA and ligand by molecular mechanics minimization (SYBYL, Tripos force field); settings: difference pterin(3) vs pterin(1)
[3] = tested on: Artemia salinas ribosomes; experiment: Effect of the inhibitor itself on in vitro protein synthesis, without RTA; settings: no RTA

pterin-6-carboxylic acid
binding to RTA crystals (RTA [1]): failed to produce stable complexes | inhibition of RTA (ricin A chain (RTA)): Neither pterin-6-carboxylic acid nor folic acid acted as inhibitors

Nc1nc2nccnc2c(=O)[nH]1
interaction energy more favorable than for pterin(1) (RTA [2]): about 8 Kcal/mole

Nc1cc(C(=O)O)ccc1O
binding to RTA crystals (RTA [1]): failed

Cc1cc(O)c2c(c1)C(=O)c1cc(O)cc(O)c1C2=O
binding to RTA crystals (RTA [1]): failed

Nc1nc(O)c2[nH]c(O)nc2n1
binding to RTA crystals (RTA [1]): unsuccessful | binding to RTA crystals (RTA [1]; listed as 2-amino-6,8-dihydrooxypurine): did not bind to RTA

rhodizonic acid
binding to RTA crystals (RTA [1]): failed to bind to RTA crystals

Nc1nc2ncc(CNc3ccc(C(=O)N[C@@H](CCC(=O)O)C(=O)O)cc3)nc2c(=O)[nH]1
binding to RTA crystals (RTA [1]): failed to produce stable complexes | binding to RTA crystals (RTA [1]; listed as Folic acid): nor does it bind to RTA crystals | inhibition of RTA (ricin A chain (RTA)): Neither pterin-6-carboxylic acid nor folic acid acted as inhibitors | inhibition of RTA (ricin A chain (RTA); listed as Folic acid): does not inhibit RTA

Nc1nc2ncc(CNc3ccc(C(=O)O)cc3)nc2c(=O)[nH]1
refined occupancy in RTA crystal complex (RTA [1]; monoclinic crystals, pH 9, 2.3 Å): 100% | effect on protein synthesis using Artemia salinas ribosomes [3]: minor inhibitory effect
